Key:
[1] = system: Influenza A; details: person, after Tocilizumab; 900 mg intravenously on day 6
[2] = system: SARS-cov2; details: person, deterioration after Tocilizumab; Ravulizumab 3000 mg i.v.

Row | Molecule | mental function [1] | mental function [2]
1 | Ecoluzimab: C5 inhibitor; inhibitor of terminal complement 5 (antibody, chains of the INN, looked up) heavy: QVQLVQSGAEVKKPGASVKVSCKASGYIFSNYWIQWVRQAPGQGLEWMGEILPGSGSTEYTENFKDRVTMTRDTSTSTVYMELSSLRSEDTAVYYCARYFFGSSPNWYFDVWGQGTLVTVSSASTKGPSVFPLAPCSRSTSESTAALGCLVKDYFPEPVTVSWNSGALTSGVHTFPAVLQSSGLYSLSSVVTVPSSNFGTQTYTCNVDHKPSNTKVDKTVERKCCVECPPCPAPPVAGPSVFLFPPKPKDTLMISRTPEVTCVVVDVSQEDPEVQFNWYVDGVEVHNAKTKPREEQFNSTYRVVSVLTVLHQDWLNGKEYKCKVSNKGLPSSIEKTISKAKGQPREPQVYTLPPSQEEMTKNQVSLTCLVKGFYPSDIAVEWESNGQPENNYKTTPPVLDSDGSFFLYSRLTVDKSRWQEGNVFSCSVMHEALHNHYTQKSLSLSLG light: DIQMTQSPSSLSASVGDRVTITCGASENIYGALNWYQQKPGKAPKLLIYGATNLADGVPSRFSGSGSGTDFTLTISSLQPEDFATYYCQNVLNTPLTFGQGTKVEIKRTVAAPSVFIFPPSDEQLKSGTASVVCLLNNFYPREAKVQWKVDNALQSGNSQESVTEQDSKDSTYSLSSTLTLSKADYEKHKVYACEVTHQGLSSPVTKSFNRGEC | gradual improvement in mental function | 
2 | Ravulizumab: C5-Inhibitor (antibody, chains of the INN, looked up) heavy: QVQLVQSGAEVKKPGASVKVSCKASGHIFSNYWIQWVRQAPGQGLEWMGEILPGSGHTEYTENFKDRVTMTRDTSTSTVYMELSSLRSEDTAVYYCARYFFGSSPNWYFDVWGQGTLVTVSSASTKGPSVFPLAPCSRSTSESTAALGCLVKDYFPEPVTVSWNSGALTSGVHTFPAVLQSSGLYSLSSVVTVPSSNFGTQTYTCNVDHKPSNTKVDKTVERKCCVECPPCPAPPVAGPSVFLFPPKPKDTLMISRTPEVTCVVVDVSQEDPEVQFNWYVDGVEVHNAKTKPREEQFNSTYRVVSVLTVLHQDWLNGKEYKCKVSNKGLPSSIEKTISKAKGQPREPQVYTLPPSQEEMTKNQVSLTCLVKGFYPSDIAVEWESNGQPENNYKTTPPVLDSDGSFFLYSRLTVDKSRWQEGNVFSCSVLHEALHSHYTQKSLSLSLG light: DIQMTQSPSSLSASVGDRVTITCGASENIYGALNWYQQKPGKAPKLLIYGATNLADGVPSRFSGSGSGTDFTLTISSLQPEDFATYYCQNVLNTPLTFGQGTKVEIKRTVAAPSVFIFPPSDEQLKSGTASVVCLLNNFYPREAKVQWKVDNALQSGNSQESVTEQDSKDSTYSLSSTLTLSKADYEKHKVYACEVTHQGLSSPVTKSFNRGEC |  | gradual improvement in mental function

— patent US20230130925A1 (priority 2020, published 2023)
